The record followed here is PubChem BioAssay AID588501 (NMMLSC, 2011).

Amino acid sequences for entries named in this document (tags omitted).
UniProt P15917, whole entry, looked up: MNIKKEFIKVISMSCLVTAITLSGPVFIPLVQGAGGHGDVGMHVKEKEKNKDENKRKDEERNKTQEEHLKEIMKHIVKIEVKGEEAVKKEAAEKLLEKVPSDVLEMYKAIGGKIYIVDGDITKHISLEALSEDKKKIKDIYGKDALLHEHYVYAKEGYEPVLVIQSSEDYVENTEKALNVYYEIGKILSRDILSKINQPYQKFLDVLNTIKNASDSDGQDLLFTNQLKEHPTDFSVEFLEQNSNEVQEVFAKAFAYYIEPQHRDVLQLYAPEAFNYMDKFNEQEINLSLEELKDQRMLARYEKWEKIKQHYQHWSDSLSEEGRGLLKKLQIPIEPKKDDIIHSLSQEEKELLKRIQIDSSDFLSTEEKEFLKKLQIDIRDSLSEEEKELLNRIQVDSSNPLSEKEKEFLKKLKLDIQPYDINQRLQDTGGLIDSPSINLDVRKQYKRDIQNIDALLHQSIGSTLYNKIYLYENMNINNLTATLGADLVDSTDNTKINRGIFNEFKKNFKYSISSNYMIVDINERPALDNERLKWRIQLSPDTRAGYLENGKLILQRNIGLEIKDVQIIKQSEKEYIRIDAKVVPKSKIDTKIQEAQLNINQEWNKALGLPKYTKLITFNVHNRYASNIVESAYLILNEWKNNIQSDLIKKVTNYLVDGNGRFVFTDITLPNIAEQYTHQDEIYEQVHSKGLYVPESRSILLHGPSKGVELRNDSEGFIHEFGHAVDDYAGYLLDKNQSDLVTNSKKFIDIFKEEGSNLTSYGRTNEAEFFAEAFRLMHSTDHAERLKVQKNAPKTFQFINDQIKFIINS

The entries are a selection whose mix differs from that of the whole data set. Calls of active or inactive are those of the source. No stated cut-off is given here; in the data, active means inhibition above about 30%; inconclusive means no clear call, values can overlap the other calls; inactive means below that.

This test addresses Lethal factor (Bacillus anthracis) (UniProt P15917). In words: anthrax lethal factor cleavage blockers – biochemical, multiplex microsphere, MLPCN library, primary screen (AID 588501). Further: plate controls were buffer without enzyme for full effect and enzyme alone for no effect. Conditions: multiplex microsphere protease cleavage assay, LF; at 10 µM; stronger effect = higher value.
The inhibition is the change of the read-out against control, counted positive when it falls. Turning to `CC(C)(C)C(=O)NC(Sc1ccncn1)C(Cl)(Cl)Cl` (configuration not stated), the inhibition was inactive: -1.2%.
In the case of `O=[N+]([O-])c1ncn(CCn2ncnc2[N+](=O)[O-])n1` it was inactive: 1.9%; in that of `O=[N+]([O-])c1cccc2n[nH]nc12`, inactive: -3.8%.
In the case of `CC(=O)N1C2C3N(C(C)=O)C1C1N(C(C)=O)C(C(N1C(C)=O)N3C(C)=O)N2C(C)=O`, the inhibition is inactive: -2.7%.
With `Cc1ccc(NP(=O)(Oc2ccccc2)Oc2ccccc2)nc1`, the inhibition was inactive: 2.2%.
In the case of `CCc1nc2c(n1)c1c(non1O)c1c2no[n+]1[O-]` it was inactive: -0.2%.
To `O=[N+]([O-])c1cc([N+](=O)[O-])c(CCNc2ccccc2)c([N+](=O)[O-])c1` belongs inactive: -8%; to `COc1ccc(C2=NCC(CBr)S2)cc1` (configuration not stated), inactive: -8.2%; to `CC(C)=N/N=C(\N)N[N+](=O)[O-]`, inactive: -0.1%.
In the case of `CC(C)c1nc(Nc2ccccc2)n(P(=O)(N(C)C)N(C)C)n1` it was inactive: -7.2%; in that of `CN(C)C(=O)OCCc1n(C)cc[n+]1C`, inactive: 0.9%; in that of `c1cc(-c2nn[nH]n2)ccc1-c1nn[nH]n1`, inactive: 1.5%.
With `CC1CCN(C(=O)Oc2c(Cl)cc(Cl)c3cccnc23)CC1`, the inhibition is inactive: 0.9%.
To `Nc1ccc([As](=O)(O)c2ccc(N)cc2)cc1` belongs inactive: -1.8%; to `C[N+]1=C2C=CC=CC=C2SC12C([N+](=O)[O-])=CC([N+](=O)[O-])=C[C-]2[N+](=O)[O-]` (configuration not stated), inactive: 0.7%; to `CCN(/C(=N/P(=O)(N1CCOCC1)N1CCOCC1)N1CCOCC1)c1ccc(OC)cc1`, inactive: -0.1%.
To `O=C(COc1ccccc1)OC1CN2CCC1CC2` (configuration not stated) belongs inactive: -2%.
In the case of `O=C(Nc1ccncc1[N+](=O)[O-])c1ccc([N+](=O)[O-])cc1[N+](=O)[O-]` it was inactive: -5%.
Turning to `O=C(O)C(=O)c1ccc(N(CCCl)CCCl)cc1`, the inhibition was inactive: -7.4%.
Turning to `COP1(=S)c2c(C)nn(CCC#N)c2N=C(c2ccc(F)cc2)N1C` (configuration not stated), the inhibition was inactive: -2.8%.
As for `COC(=O)C1(C)COP(=O)(N2CCCC2)OC1` (configuration not stated), the inhibition is inactive: 3%.
In the case of `CCC(C)N(CC(C)C)C(=S)SC(NC(C)=O)C(Cl)(Cl)Cl` (configuration not stated) it was inactive: 2.6%; in that of `CCOC(=O)c1ccc(NC(=O)C(C)(CCl)SC)cc1` (configuration not stated), inactive: 4%; in that of `O=C(OC1CN2CCC1CC2)c1cccc([N+](=O)[O-])c1` (configuration not stated), inactive: 1.5%.
On to `CSc1ccc(Nc2c([N+](=O)[O-])cc([N+](=O)[O-])cc2[N+](=O)[O-])cc1`, for which the inhibition was inactive: -7.5%.
Turning to `Cc1cc(SC(NC(=O)c2ccccc2)C(Cl)(Cl)Cl)nc(C(C)C)n1` (configuration not stated), the inhibition is inactive: -1.6%.
In the case of `COP(=O)(OC)N1CC1c1ccccc1` (configuration not stated) it was inactive: 6.5%.
